# Reference: EP1215282A1, “METHOD OF DETECTING TRICHOTHECENE MYCOTOXINS AND REAGENT THEREOF” (dated 2001)
# Tests used:
# [1] = tested on: antibody DON-1 of Casale, et al.; conditions: cited from earlier work
# [2] = tested on: monoclonal antibody KTM-240; assay: competitive ELISA, specificity of antibody KTM-240
# [3] = tested on: antibody of Dietrich, et al. (5B2); conditions: cited from earlier work
# [4] = tested on: anti-T-2 toxin monoclonal antibody described in Japanese Published Examined Patent Application No. 43358/93; conditions: cited from earlier work
# [5] = tested on: anti-T-2 monoclonal antibody IVI-10092; assay: reactivity of prior-art antibody IVI-10092 (U.S. Patent No. 4772551); conditions: based on the 50% inhibition value for T-2 as 100%
SMILES,reactivity of DON-1 (in words) [1],reactivity of KTM-240 (in words) [2],other results
CC1=C[C@H]2O[C@@H]3[C@H](O)[C@@H](O)[C@](C)([C@@]2(CO)[C@H](O)C1=O)[C@]31CO1,weakly reacts,does not react,
CC(=O)O[C@@H]1C[C@]2(C)[C@@]3(CO)[C@H](O)C(=O)C(C)=C[C@H]3O[C@H]1[C@@]21CO1,strongly reacts,,
CC(=O)OC[C@]12[C@H](OC(C)=O)C(=O)C(C)=C[C@H]1O[C@@H]1[C@H](OC(C)=O)C[C@@]2(C)[C@]12CO2,,,reactivity of 5B2 relative to that with 3-acetyl-DON [3]: less than that with 3-acetyl-DON; reactivity of KTM-240 relative to that with 15-acetyl-DON [2]: twice
CC(=O)OC[C@]12[C@H](O)C(=O)C(C)=C[C@H]1O[C@@H]1[C@H](OC(C)=O)[C@@H](OC(C)=O)[C@@]2(C)[C@]12CO2,,strongly reacts,
CC(=O)OC[C@]12C[C@H](OC(=O)CC(C)C)C(C)=C[C@H]1O[C@@H]1[C@H](O)[C@@H](O)[C@@]2(C)[C@]12CO2,,,cross-reactivity [4]: about 3%
CC1=C[C@H]2O[C@@H]3[C@H](O)C[C@](C)([C@@]2(CO)[C@H](O)C1=O)[C@]31CO1,reacts well,does not react,
CC(=O)OC[C@]12C[C@H](OC(=O)CC(C)C)C(C)=C[C@H]1O[C@@H]1[C@H](OC(C)=O)[C@@H](OC(C)=O)[C@@]2(C)[C@]12CO2,,,reactivity of IVI-10092 [5]: ca. 25%
CC(=O)OC[C@]12[C@H](O)C(=O)C(C)=C[C@H]1O[C@@H]1[C@H](O)C[C@@]2(C)[C@]12CO2,does not react,,
CC(=O)OC[C@]12[C@H](O)C(=O)C(C)=C[C@H]1O[C@@H]1[C@H](OC(C)=O)C[C@@]2(C)[C@]12CO2,,strongly reacts,reactivity of 5B2 relative to that with 3-acetyl-DON [3]: about 6 times; reactivity of KTM-240 relative to that with 15-acetyl-DON [2]: about 50 times
